Compound potency records, mixed from different reports. Data source: NIAID ChemDB in PubChem.

Common to all: whole-cell or culture tests; agent: Cytomegalovirus; measure: EC50

ECn: concentration that inhibits the pathogen or its effect by n%.

compound,strain or isolate,cell line,method,result
O=C(O)P(=O)(O)O,,,,7.4 µM
Nc1ccn(C[C@@H](CO)OCP(=O)(O)O)c(=O)n1,AD169,HEL,cytopathic effect,0.02 µg/mL
CC(=O)N(O)CCCCCNC(=O)CCC(=O)N(O)CCCCCNC(=O)CCC(=O)N(O)CCCCCN,,HFF,,9.1 µM
Nc1nc(Cl)c2nnn(C[C@H]3CC[C@@H](CO)C3)c2n1,AD169,HEL,cytopathic effect,>200 µg/mL
O=c1[nH]cnc2c1ncn2CCOCP(=O)(O)O,DAVIS,HEL,cytopathic effect,>400 µg/mL
Nc1ncnc2c1ncn2C[C@@H](CO)OCP(=O)(O)O,AD169,,cytopathic effect,0.63 µM
OC[C@H]1O[C@@H](n2c(Br)nc3cc(Cl)c(Cl)cc32)[C@H](O)[C@@H]1O,,,,26 µM
O=c1ccn(CC(CO)OCP(=O)(O)O)c(=O)[nH]1,AD169,HEL,cytopathic effect,70 µg/mL
Nc1nc2c(ncn2C[C@H]2CC[C@@H](CO)C2)c(=O)[nH]1,AD169,HEL,cytopathic effect,>200 µg/mL
Nc1cc(OCCOCP(=O)(O)O)nc(N)n1,AD169,,cytopathic effect,>190 µM
O=C(O)P(=O)(O)O,AD169,HEL,plaque count,15 µg/mL
Nc1cc(OC[C@H](CO)OCP(=O)(O)O)nc(N)n1,AD169,,cytopathic effect,139 µM
Cc1cn(C[C@@H](CO)OCP(=O)(O)O)c(=O)[nH]c1=O,DAVIS,HEL,plaque count,100 µg/mL
Nc1nc(N)c2nnn(C[C@H]3CC[C@@H](CO)C3)c2n1,AD169,HEL,cytopathic effect,>50 µg/mL
Nc1ncc2ncn(CCOCP(=O)(O)O)c2n1,DAVIS,HEL,cytopathic effect,400 µg/mL
Nc1ncnc2c1ncn2[C@@H]1C=C(CO)[C@@H](O)[C@H]1O,DAVIS,HEL,cytopathic effect,0.5 µg/mL

A second listing of 2 rows from above:

O=c1[nH]cnc2c1ncn2CCOCP(=O)(O)O ; strain or isolate: DAVIS ; cell line: HEL ; method: cytopathic effect ; result: >400 µg/mL
O=c1ccn(CC(CO)OCP(=O)(O)O)c(=O)[nH]1 ; strain or isolate: AD169 ; cell line: HEL ; method: cytopathic effect ; result: 70 µg/mL

An empty or dashed field is not shown. Lines come from different laboratories, so protocols vary.